Data published in patent US10701928B2, “Method for animal tissue material disinfection and sterilization and corresponding animal tissue soak solution” (Beijing Ruijian Gaoke Biotechnology Co., Ltd., priority 2013, dated 2020).

Experiment: Differential scanning calorimetry of the treated tissue matrix
Assay type: physicochemical
Conditions: Example 5: fresh porcine hide about 1 mm, treated 1-2 hours, washed with phosphate buffer

| SMILES | damage on the tissue matrix (DSC) |
| --- | --- |
| [Na+].[OH-] [1N sodium hydroxide, sodium hydroxide] | different degrees of damage on the tissue matrix |
| OCl [0.2% sodium hypochlorite, sodium hypochlorite] | different degrees of damage on the tissue matrix |
| OO [3.0% hydrogen peroxide, hydrogen peroxide] | different degrees of damage on the tissue matrix |

Some compounds share one wording; it may come from a single statement.
